From PMC5549992 (PLoS Pathogens, 2017)

T1: Histidine (His6)-tagged Rv2623 expressed in M. smegmatis mc2155 (M. tuberculosis, UniProt P9WFD7 1-297)
T1 construct: not shown: His6, N-terminal, kept
T1 sequence: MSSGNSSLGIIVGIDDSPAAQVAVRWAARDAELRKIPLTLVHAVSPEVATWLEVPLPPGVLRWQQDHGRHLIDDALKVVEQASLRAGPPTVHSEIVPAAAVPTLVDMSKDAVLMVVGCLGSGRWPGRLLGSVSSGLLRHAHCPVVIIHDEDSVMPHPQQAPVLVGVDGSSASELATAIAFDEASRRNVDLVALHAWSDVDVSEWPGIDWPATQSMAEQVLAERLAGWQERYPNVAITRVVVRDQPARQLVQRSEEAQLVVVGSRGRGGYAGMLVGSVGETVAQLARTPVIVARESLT

T2: His6-tagged Rv2623WT derived from the E. coli-based pQE80L-Rv2623 expression construct (M. tuberculosis, UniProt P9WFD7 1-297)
T2 construct: not shown: His6, N-terminal, kept
T2 sequence: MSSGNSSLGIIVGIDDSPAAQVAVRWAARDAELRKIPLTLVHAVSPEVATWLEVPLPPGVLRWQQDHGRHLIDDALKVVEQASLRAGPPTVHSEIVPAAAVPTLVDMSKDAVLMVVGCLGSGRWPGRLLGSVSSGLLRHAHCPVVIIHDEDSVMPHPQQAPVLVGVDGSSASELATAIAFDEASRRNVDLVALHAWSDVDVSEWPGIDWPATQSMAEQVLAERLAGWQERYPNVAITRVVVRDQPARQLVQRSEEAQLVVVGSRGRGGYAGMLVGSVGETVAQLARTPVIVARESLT


How the values were obtained:
[1] = biological target: T1, Histidine (His6)-tagged Rv2623 …; experiment: pull-down; details: both partners purified
[2] = biological target: T2, His6-tagged Rv2623WT derived from the …; experiment: pull-down; details: both partners purified

Binder | binding result [1] | binding result [2]
FLAG-tagged FHA I (first 100 amino acids of Rv1747) expressed in M. smegmatis mc2155 (domain or fragment, not shown: FLAG, N-terminal, kept) not shown | binds | –
cMyc-tagged FHA I (first 120 amino acids of Rv1747) expressed via LIC vector pMCSG7 (domain or fragment) not shown | – | binds
